Compound potency records, mixed from different reports. Data source: NIAID ChemDB in PubChem.

Shared fields: tests in culture; organism: Candida albicans; endpoint: MIC

Rows are shuffled and stem from different studies. Blank or dashed fields: not listed here.

structure,strain,method,result
CCCCCOc1ccc(-c2ccc(-c3ccc(C(=O)N[C@H]4C[C@@H](O)[C@@H](O)NC(=O)[C@@H]5[C@@H](O)[C@@H](C)CN5C(=O)[C@H]([C@H](C)O)NC(=O)[C@H]([C@H](O)[C@@H](O)c5ccc(O)cc5)NC(=O)[C@@H]5C[C@@H](O)CN5C(=O)[C@H]([C@H](C)O)NC4=O)cc3)cc2)cc1,90028,,0.015 µg/mL
Cc1cccc(/C=N\N(C)Cc2cccc3ccccc23)c1,,,>64 µg/mL
CCCCCOc1ccc(-c2ccc(-c3ccc(C(=O)N[C@H]4CCCNC(=O)C5C[C@H](N)CN5C(=O)C(C)NC(=O)C(CCc5ccc(O)cc5)NC(=O)C5C[C@@H](O)CN5C(=O)C(C(C)O)NC4=O)cc3)cc2)cc1,ATCC 62376,,0.39 µg/mL
CCCCCOc1ccc(-c2ccc(-c3ccc(C(=O)N[C@H]4CCCNC(=O)[C@@H]5[C@@H](O)CCN5C(=O)[C@H]([C@@H](C)O)NC(=O)[C@H](CCc5ccc(O)cc5)NC(=O)[C@@H]5C[C@@H](O)CN5C(=O)[C@H]([C@@H](C)O)NC4=O)cc3)cc2)cc1,ATCC 62376,,0.2 µg/mL
C[C@H]1[C@H](O)[C@@H](C)/C=C/C=C/C=C/C=C/C=C/C=C/C=C/[C@H](O[C@@H]2O[C@H](C)[C@@H](O)[C@H](N)[C@@H]2O)C[C@@H]2O[C@](O)(C[C@@H](O)C[C@@H](O)CC[C@H](O)[C@@H](O)C[C@@H](O)CC(=O)O[C@H]1C)C[C@H](O)[C@H]2C(=O)O,ATCC 64548,,0.25 µg/mL
O=C(NN1C(=O)/C(=C\c2ccccc2)SC1c1ccccc1)c1ccc(-c2ccccc2)cc1,MTCC 8184,,3.12 µg/mL
CN(Cc1cccc2ccccc12)/N=C\c1ccc2ccccc2c1,,,>64 µg/mL
COC(=O)C(CC(C)C)NC1=CC(=O)c2ccccc2C1=O,,,>50 µg/mL
CCCCCOc1ccc(-c2ccc(-c3ccc(C(=O)N[C@H]4CCCNC(=O)[C@@H]5CCCCN5C(=O)[C@H]([C@@H](C)O)NC(=O)[C@H](CCc5ccc(O)cc5)NC(=O)[C@@H]5C[C@@H](O)CN5C(=O)[C@H]([C@@H](C)O)NC4=O)cc3)cc2)cc1,ATCC 38247,,>100 µg/mL
CCCCCC[C@H]1OC(=O)CNC(=O)[C@@H]([C@H](C)O)NC(=O)[C@@H](CO)NC(=O)[C@H]([C@H](C)CC)NC(=O)[C@H](CC(C)C)NC(=O)[C@@H]1C,,,>100 µg/mL
Nn1c(SCC(O)(Cn2cncn2)c2ccc(Cl)cc2Cl)nnc1-c1ccc(Cl)cc1,IRFC 192,broth dilution,>64 µg/mL
CC1CCC(C(C)C)C(OC(=O)c2ccccc2Br)C1,,,9.12 µM
Nn1c(SCC(O)(Cn2cncn2)c2ccc(F)cc2F)nnc1-c1ccc(Cl)cc1,PTCC 6027,broth dilution,>64 µg/mL
COc1ccc(/C=C2/SC(c3cccc(Br)c3)N(NC(=O)c3ccc(-c4ccccc4)cc3)C2=O)cc1,MTCC 8184,,6.25 µg/mL
O=C(Nc1nc2ccc(NC(=O)[C@@H]3CCC[C@H](NCc4cccc5ccccc45)C3)cc2s1)C1CCCC1,,,0.78 µM
CCCCCOc1ccc(-c2ccc(C(=O)N[C@H]3CCCNC(=O)C4C[C@H](N)CN4C(=O)C(C(C)O)NC(=O)C(CCc4ccc(O)cc4)NC(=O)C4C[C@@H](O)CN4C(=O)C(C(C)O)NC3=O)cc2)cc1,ATCC 10231,,0.39 µg/mL
CCCCCC[C@H]1OC(=O)CNC(=O)[C@@H]([C@@H](C)O)NC(=O)[C@@H](CO)NC(=O)[C@H]([C@@H](C)CC)NC(=O)[C@H](CC(C)C)N(C)C(=O)[C@@H]1C,,,>100 µg/mL
CC1CCC(C(C)C)C(OC(=O)c2cccc([N+](=O)[O-])c2)C1,,,4.68 µM
CC(O)C1NC(=O)C(CCc2ccc(O)cc2)NC(=O)C2C[C@@H](O)CN2C(=O)C(C(C)O)NC(=O)[C@@H](NC(=O)c2ccc(N(C)C)cc2)CCCNC(=O)C2C[C@H](N)CN2C1=O,ATCC CCH442,,>100 µg/mL
CCCCCC[C@H]1OC(=O)CNC(=O)[C@@H](CC)NC(=O)[C@@H](CO)NC(=O)[C@H]([C@H](C)CC)NC(=O)[C@H](CC(C)C)N(C)C(=O)[C@@H]1C,,,>100 µg/mL
CN(C)C(=O)c1ccc2nc(NC(=O)C3CCC(CN)CC3)sc2c1,,,0.39 µM
COc1ccc(-c2nnc(SCC(O)(Cn3cncn3)c3ccc(F)cc3F)n2N)cc1,PTCC 6027,broth dilution,>64 µg/mL
CCCCCOc1ccc(-c2ccc(-c3ccc(C(=O)N[C@H]4CCCNC(=O)C5CCN5C(=O)C(C(C)O)NC(=O)C(CCc5ccc(O)cc5)NC(=O)C5C[C@@H](O)CN5C(=O)C(C(C)O)NC4=O)cc3)cc2)cc1,ATCC 62376,,3.12 µg/mL
O=C(NN1C(=O)/C(=C\c2ccccc2)SC1c1ccc(F)cc1)c1ccc(-c2ccccc2)cc1,MTCC 8184,,6.25 µg/mL
Cc1ccc(/C=N\N(C)Cc2cccc3ccsc23)cc1,,,>64 µg/mL
Nn1c(SCC(O)(Cn2cncn2)c2ccc(Cl)cc2Cl)nnc1-c1cccc(Br)c1,IRFC 192,broth dilution,>64 µg/mL
Cc1c(O)cccc1C(=O)N[C@@H](CSc1ccccc1)[C@H](O)CN1C[C@H]2CCCC[C@H]2C[C@H]1C(=O)NC(C)(C)C,I14A,,64 µg/mL
Cc1ccccc1/C=N\N(C)Cc1cccc2ccccc12,,,>64 µg/mL
CCCCCOc1ccc(-c2ccc(-c3ccc(C(=O)N[C@H]4CCCNC(=O)C5C[C@H](N)CN5C(=O)C(C(C)C)NC(=O)C(CCc5ccc(O)cc5)NC(=O)C5C[C@@H](O)CN5C(=O)C(C(C)O)NC4=O)cc3)cc2)cc1,ATCC 10231,,6.25 µg/mL
Nn1c(SCC(O)(Cn2cncn2)c2ccc(Cl)cc2Cl)nnc1-c1ccccc1,ATCC 18804,broth dilution,32 µg/mL
COc1ccc2c(Cc3ccc(C(C)(C)C)cc3)c3[n+](cc2c1OC)CCc1cc2c(cc1-3)OCO2,ATCC 10231,,1.56 µg/mL
COC(=O)CNC1=CC(=O)c2ccccc2C1=O,,,50 µg/mL
COc1ccccc1C1C(C#N)=C(N)OC2=C1CSc1ccccc12,,,50 µg/mL
O=C(Nc1nc2ccc(NC(=O)[C@H]3CCC[C@H](NCc4ccc5ccccc5c4)C3)cc2s1)C1CCCC1,,,6.25 µM
Cc1ccccc1C(=O)OC1CC(C)CCC1C(C)C,,,22.91 µM
CCCCCOc1ccc(-c2ccc(-c3ccc(C(=O)N[C@H]4CCCNC(=O)[C@@H]5C[C@H](NC(=O)NC)CN5C(=O)[C@H]([C@@H](C)O)NC(=O)[C@H](CCc5ccc(O)cc5)NC(=O)[C@@H]5C[C@@H](O)CN5C(=O)[C@H]([C@@H](C)O)NC4=O)cc3)cc2)cc1,ATCC 62376,,0.2 µg/mL
Nn1c(SCC(O)(Cn2cncn2)c2ccc(Cl)cc2Cl)nnc1-c1ccc(F)cc1,IRFC 36,broth dilution,>64 µg/mL
COc1ccc(C(=O)OC2CC(C)CCC2C(C)C)cc1,,,21.38 µM
CN(Cc1cccc2ccccc12)/N=C\c1ccccc1,,,>64 µg/mL
CCCOc1nc2c(c(-c3ccc4c(c3)OCO4)c1C#N)CSc1ccc(Cl)cc1-2,,,50 µg/mL
C[C@@H](SC1COC(/C=C/C=C/c2ccc(C#N)cc2F)OC1)[C@](O)(Cn1cncn1)c1ccc(F)cc1F,CAL-0076,,8 µg/mL
COc1ccc(-c2c(C#N)c(OC)nc3c2CSc2ccc(OC)cc2-3)cc1,,,100 µg/mL
CCCCCOc1ccc(-c2ccc(-c3ccc(C(=O)N[C@H]4CCCNC(=O)C5C[C@H](N)CN5C(=O)C(CCCCN)NC(=O)C(CCc5ccc(O)cc5)NC(=O)C5C[C@@H](O)CN5C(=O)C(C(C)O)NC4=O)cc3)cc2)cc1,ATCC 62376,,0.2 µg/mL
CCCCCOc1ccc(-c2ccc(-c3ccc(C(=O)N[C@H]4CCCNC(=O)[C@@H]5C[C@H](N=C(N)N)CN5C(=O)[C@H]([C@@H](C)O)NC(=O)[C@H](CCc5ccc(O)cc5)NC(=O)[C@@H]5C[C@@H](O)CN5C(=O)[C@H]([C@@H](C)O)NC4=O)cc3)cc2)cc1,ATCC 62376,,0.39 µg/mL
Nn1c(SCC(O)(Cn2cncn2)c2ccc(F)cc2F)nnc1-c1ccc(Cl)cc1Cl,IRFC 192,broth dilution,>64 µg/mL
O=C(NN1C(=O)/C(=C\c2cccc([N+](=O)[O-])c2)SC1c1cccc(Br)c1)c1ccc(-c2ccccc2)cc1,MTCC 8184,,1.56 µg/mL
COc1nc2c(c(-c3ccc(C)cc3)c1C#N)CSc1ccccc1-2,,,50 µg/mL
Nn1c(SCC(O)(Cn2cncn2)c2ccc(F)cc2F)nnc1-c1ccncc1,PTCC 6027,broth dilution,>64 µg/mL
O=C(CCNCc1ccc(-c2ccccc2)cc1)Nc1ccc2nc(NC(=O)C3CCCCC3)sc2c1,,,4 µM
CCCCCOc1ccc(-c2ccc(-c3ccc(C(=O)N[C@H]4CCCNC(=O)[C@@H]5C[C@H](N)CN5C(=O)C(C)(C)NC(=O)C(CCc5ccc(O)cc5)NC(=O)[C@@H]5C[C@@H](O)CN5C(=O)[C@H]([C@@H](C)O)NC4=O)cc3)cc2)cc1,ATCC 62376,,50 µg/mL
CC1CCC(C(C)C)C(OC(=O)c2cccc(Br)c2)C1,,,9.12 µM
COc1ccc(-c2c(C#N)c(OC)nc3c2CSc2ccc(Cl)cc2-3)cc1O,,,100 µg/mL
O=C(Nc1nc2ccc(NC(=O)[C@@H]3CCC[C@@H](NCc4ccc5ccccc5c4)C3)cc2s1)C1CCC1,,,1.56 µM
C/C(=N\NC(=O)c1ccncc1)c1cc2ccccc2oc1=O,ATCC 2091,broth dilution,50 µg/mL
CC(=O)N[C@H]1CCCNC(=O)[C@@H]2C[C@H](N)CN2C(=O)[C@H]([C@@H](C)O)NC(=O)[C@H](CCc2ccc(O)cc2)NC(=O)[C@@H]2C[C@@H](O)CN2C(=O)[C@H]([C@@H](C)O)NC1=O,ATCC 38247,,>100 µg/mL
Nn1c(SCC(O)(Cn2cncn2)c2ccc(Cl)cc2Cl)nnc1-c1ccncc1,IRFC 36,broth dilution,>64 µg/mL
CC1CCC(C(C)C)C(OC(=O)c2ccc([N+](=O)[O-])cc2)C1,,,5.13 µM

Repeating the final 8 entries:

structure,strain,method,result
CCCCCOc1ccc(-c2ccc(-c3ccc(C(=O)N[C@H]4CCCNC(=O)[C@@H]5C[C@H](N)CN5C(=O)C(C)(C)NC(=O)C(CCc5ccc(O)cc5)NC(=O)[C@@H]5C[C@@H](O)CN5C(=O)[C@H]([C@@H](C)O)NC4=O)cc3)cc2)cc1,ATCC 62376,,50 µg/mL
CC1CCC(C(C)C)C(OC(=O)c2cccc(Br)c2)C1,,,9.12 µM
COc1ccc(-c2c(C#N)c(OC)nc3c2CSc2ccc(Cl)cc2-3)cc1O,,,100 µg/mL
O=C(Nc1nc2ccc(NC(=O)[C@@H]3CCC[C@@H](NCc4ccc5ccccc5c4)C3)cc2s1)C1CCC1,,,1.56 µM
C/C(=N\NC(=O)c1ccncc1)c1cc2ccccc2oc1=O,ATCC 2091,broth dilution,50 µg/mL
CC(=O)N[C@H]1CCCNC(=O)[C@@H]2C[C@H](N)CN2C(=O)[C@H]([C@@H](C)O)NC(=O)[C@H](CCc2ccc(O)cc2)NC(=O)[C@@H]2C[C@@H](O)CN2C(=O)[C@H]([C@@H](C)O)NC1=O,ATCC 38247,,>100 µg/mL
Nn1c(SCC(O)(Cn2cncn2)c2ccc(Cl)cc2Cl)nnc1-c1ccncc1,IRFC 36,broth dilution,>64 µg/mL
CC1CCC(C(C)C)C(OC(=O)c2ccc([N+](=O)[O-])cc2)C1,,,5.13 µM